Measured values from several laboratories, pooled; numbers as filed in NIAID ChemDB.

All rows: tests in culture; organism: Mycobacterium tuberculosis

Percent inhibition refers to the dose given; in toxicity tests it is the harm to the cells.

SMILES,method,tested at,mutations,strain,endpoint,result
Cc1c(N=Cc2ccccc2)c(=O)n(-c2ccccc2)n1C,BACTEC,12.8 µg/mL,-,H37Rv,inhibition,28%
Cc1nc2nc(S(=O)(=O)Nc3c(Br)ccc4cccnc34)nn2c2c1CCC2,visual reading,-,INH RIF resistant,M23,MIC50,2 µM
Fc1cccc(NC(=S)SCc2ccco2)c1,BACTEC,128 µg/mL,-,H37Rv,inhibition,100%
COc1cc([C@@](O)(CCN(C)C)[C@@H](c2cc(-c3ccc(C)cc3)cnc2OC)c2cccc(OC)c2F)cc(OC)n1,resazurin,-,-,H37Rv,MIC90,15.31 µM
CC1=NC2c3c(-c4ccc(Cl)cc4)cn(-c4ccc(C)cc4)c3N=CN2N1,BACTEC,-,-,H37Rv,MIC bound,>12.5 µg/mL
NC1CCN(CCCCn2ccc(Nc3cc(CO)ccn3)nc2=O)CC1,turbidity,-,-,H37Rv,EC50,≥1 µM
NC(=O)C1(c2ccccc2)Nc2ccccc2S1,BACTEC,12.5 µg/mL,-,H37Rv,inhibition,4%
CCN(CC)C(=O)C1CCCN(c2nc3c(cc2[N+](=O)[O-])c(=O)c(C(=O)O)c2sc4ccccc4n23)C1,-,-,-,H37Rv (MTB),MIC100,1.49 µM
COc1cc([C@@](O)(CCN(C)C)[C@H](c2cc(-c3ccc(Cl)cc3)cnc2OC)c2cccc(OC)c2F)cc(OC)n1,resazurin,-,-,H37Rv,MIC90,>10 µM
c1ccc(Sc2nnc(N3CCN(c4nc(N5CCN(c6ccccc6)CC5)c5ccccc5n4)CC3)o2)cc1,BACTEC / fluorescence,-,-,H37Rv,MIC,>6.25 µg/mL
COc1cc2c[n+](C)c3c4cc(OC)c(OC(C)C)cc4ccc3c2cc1OC,BACTEC,-,-,H37Rv,MIC,<12.5 µg/mL
Cc1cccnc1Nc1nc(-c2ccccn2)cs1,low oxygen,-,-,H37Rv,MIC90,0.4 µM
CC(C)C1C(C(N)=O)C(=O)OC1(C)C,BACTEC,-,-,H37Rv,MIC bound,>12.5 µg/mL
NCCCNCc1ccnc(Nc2ccn(CCCCN3CCC(N)CC3)c(=O)n2)c1,turbidity,-,-,H37Rv,EC50,0.5–1 µM
CC(C)=CC1C(C(=O)O)C1(C)C,BACTEC,-,-,H37Rv,MIC bound,>128 µg/mL
CCO/N=C1/C(=O)N(CCOCCOCCOCCN2C(=O)C(=O)c3ccccc32)c2ccc(C)cc21,visual reading,-,MDR,-,MIC,256 µg/mL
c1ccc(-c2nnc(SCCC3OCCCO3)o2)cc1,low oxygen,-,-,H37Rv,MIC90,6.4 µM
C[C@H]1NCc2cc(-c3ccc4c(=O)c(C(=O)O)cn(C5CC5)c4c3OC(F)F)ccc21,-,-,-,H37Rv,MIC,2 µg/mL
NC[C@H]1O[C@H](O[C@H]2[C@H](O)[C@@H](O[C@H]3O[C@H](CO)[C@@H](O)[C@H](N)[C@H]3O)[C@H](N)C[C@@H]2N)[C@H](O)[C@@H](O)[C@@H]1O,-,-,-,Isolate CKN64-301 (rrs A1401G mutation),MIC,>80 µg/mL
Nc1cc(-c2ccc(Cl)cc2)nn1-c1nnc2c(n1)[nH]c1ccccc12,resazurin,6.25 µg/mL,-,H37Rv,inhibition,34%
CCO/N=C1/C(=O)N(CCOCCOCCOCCn2c(O)c(N=O)c3ccccc32)c2ccc(C)cc21,visual reading,-,-,H37Rv,MIC,128 µg/mL
N[C@@H]1CN(c2c(F)cc3c(=O)c(C(=O)O)cn([C@@H]4C[C@@H]4F)c3c2Cl)CC12CC2,-,-,-,H37Rv,MIC,0.25 µg/mL
CN1CCN(c2nc3c(cc2[N+](=O)[O-])c(=O)c(C(=O)O)c2sc4ccccc4n23)CC1c1ccccc1,-,-,-,H37Rv (MTB),MIC100,12.12 µM
CCOC(=O)Cc1csc(/N=C2/NC(=O)C(C)S2)n1,-,-,-,H37Rv,MIC,>12.5 µg/mL
O=[N+]([O-])c1cccc(Sc2nnc(N3CCN(c4nc(N5CCN(c6ccccc6)CC5)c5ccccc5n4)CC3)o2)c1,BACTEC / fluorescence,-,-,H37Rv,MIC,>6.25 µg/mL
CCOC(=O)Cc1csc(/N=C2/NC(=O)/C(=C\c3ccc([N+](=O)[O-])o3)S2)n1,-,-,-,H37Rv,EC50,<12.5 µg/mL
COc1cc([C@](O)(CCN(C)C)[C@@H](c2cc(-c3ccc(Cl)cc3)cnc2OC)c2cccc(OC)c2F)cc(OC)n1,resazurin,-,-,H37Rv,MIC90,0.76 µM
NC1CCN(CCCCn2ccc(Nc3ccc(C4(O)CCNCC4)cn3)nc2=O)CC1,turbidity,-,-,H37Rv,EC50,≥1 µM
C[C@]1(COc2ccc(N3CCC(COCc4cccc(Cl)c4)CC3)cc2)Cn2cc([N+](=O)[O-])nc2O1,-,-,-,H37Rv,MIC,0.024 µg/mL
CCOC(=O)C(c1ccc2c(c1)OCO2)C1(NC(=O)c2ccccc2)C(=O)C(C(=O)OC)C(=O)C1C(=O)OC,BACTEC,-,-,H37Rv,MIC bound,>12.5 µg/mL
COc1cc([C@](O)(CCN(C)C)[C@@H](c2cc(-c3ccc(F)cc3)cnc2OC)c2cccc(OC)c2F)cc(OC)n1,resazurin,-,-,H37Rv,MIC90,4.56 µM
CO/N=C1/C(=O)N(CCOCCOCCOCCn2c(O)c(N=O)c3ccccc32)c2ccc(C)cc21,visual reading,-,-,H37Rv,MIC,256 µg/mL
CO/N=C(\C)c1cccc(F)c1NS(=O)(=O)c1nc2c(F)cnc(OC)n2n1,visual reading,-,INH RIF resistant,M23,MIC50,1 µM
Brc1cn2[n+](c1)[B-]n1cc(Br)c[n+]1[B-]2,BACTEC,-,-,H37Rv,MIC,≥128 µg/mL
COc1cc([C@](O)(CCN(C)C)[C@@H](c2cc(-c3ccc(C)cc3)cnc2OC)c2cccc(OC)c2F)cc(OC)n1,resazurin,-,-,H37Rv,MIC90,1.99 µM
O=C(Nc1cccc([N+](=O)[O-])c1)c1cc2ccccc2cc1O,-,-,-,H37Rv,MIC99,750 µg/mL
CC1CCc2cc(F)cc3c(=O)c(C(=O)O)cn1c23,-,-,-,H37Rv,MIC,64 µg/mL
O=[N+]([O-])c1ccccc1Sc1nnc(N2CCN(c3nc(N4CCN(c5ccccc5)CC4)c4ccccc4n3)CC2)o1,BACTEC / fluorescence,6.25 µg/mL,-,H37Rv,inhibition,0%
NC1CCN(CCCCn2ccc(Nc3cc(C(=O)NC4CNC4)ccn3)nc2=O)CC1,turbidity,-,-,H37Rv,EC50,0.5–1 µM
O=C(O)c1c(=O)c2cc([N+](=O)[O-])c(N3CCC(O)(c4ccc(Cl)cc4)CC3)nc2n2c1sc1ccccc12,-,-,-,H37Rv (MTB),MIC100,2.83 µM
CCN1CCC[C@H]1SC1=C(C(=O)O)N2C(=O)[C@H]([C@@H](C)O)[C@H]2S1,visual reading,-,-,H37Rv,MIC,4 µg/mL
COc1cc([C@@](O)(CCN(C)C)[C@H](c2cc(-c3ccc(OC(F)(F)F)cc3)cnc2OC)c2cccc(OC)c2F)cc(OC)n1,resazurin,-,-,H37Rv,MIC90,>10 µM
O=C(O)c1c(=O)c2cc([N+](=O)[O-])c(N3CCC(N4CCCCC4)CC3)nc2n2c1sc1ccccc12,-,-,-,H37Rv (MTB),MIC100,1.54 µM
N#Cc1ccc(NNC(=O)N2CCN(c3nc(N4CCN(c5ccccc5)CC4)c4ccccc4n3)CC2)cc1,agar / visual reading,12.5 µg/mL,-,H37Rv,inhibition,93%
O=C1O[C@H](c2ccc3c(c2)OCO3)C2C(=O)O[C@H](c3ccc4c(c3)OCO4)C12,BACTEC,12.5 µg/mL,-,H37Rv,inhibition,0%
CCO/N=C1/C(=O)N(CCOCCOCCOCCN2C(=O)C(=O)c3cc(F)ccc32)c2ccc(F)cc21,visual reading,-,MDR,-,MIC,128 µg/mL
O=Cc1ccc(Sc2nnc(N3CCN(c4nc(N5CCN(c6ccccc6)CC5)c5ccccc5n4)CC3)o2)cc1,BACTEC / fluorescence,6.25 µg/mL,-,H37Rv,inhibition,0%
C[C@@H](O)[C@H]1C(=O)N2C(C(=O)O)=C(S[C@@H]3CCCN3)S[C@H]12,visual reading,-,-,H37Rv,MIC,0.5 µg/mL
CCOC(=O)Cc1csc(NC(=O)CCl)n1,-,12.5 µg/mL,-,H37Rv,inhibition,86%
NC(=O)c1cnccn1,BACTEC / fluorescence,3.12 µg/mL,-,H37Rv,inhibition,99%
CCOc1ccc2c(c[n+](C)c3c4cc5c(cc4ccc23)OCO5)c1OC,BACTEC,-,-,H37Rv,MIC,<12.5 µg/mL
Cc1cc(F)ccc1/C=C/CN1CCN(c2ccc(OC[C@@]3(C)Cn4cc([N+](=O)[O-])nc4O3)cc2)CC1,-,-,-,H37Rv,MIC,<0.012 µg/mL
O=[N+]([O-])c1ccc(C2=Nn3cnnc3SC2)o1,BACTEC,-,-,H37Rv,MIC,≥12.5 µg/mL
O=C(O)c1c(=O)c2cc([N+](=O)[O-])c(N3CCC4(CC3)OCCO4)nc2n2c1sc1ccccc12,-,-,-,H37Rv (MTB),MIC100,0.19 µM
COc1cc([C@@](O)(CCN(C)C)[C@H](c2cc(-c3ccc(C#N)cc3)cnc2OC)c2cccc(OC)c2F)cc(OC)n1,resazurin,-,-,H37Rv,MIC90,>10 µM
CO/N=C1/C(=O)N(CCOCCOCCOCCn2c(O)c(N=O)c3cc(F)ccc32)c2ccc(F)cc21,visual reading,-,-,H37Rv,MIC,256 µg/mL
CC(C)Cc1ccc(CN(C)C2CCN(c3ccc(OC[C@@]4(C)Cn5cc([N+](=O)[O-])nc5O4)cc3)CC2)cc1,-,-,-,H37Rv,MIC,0.012 µg/mL
C=C(c1ccccc1)N1N=NC2CCOC21,BACTEC,-,-,H37Rv,MIC bound,>12.5 µg/mL
CCOC(=O)Cc1csc(/N=C2/NC(=O)/C(=C\c3ccc([N+](=O)[O-])cc3[N+](=O)[O-])S2)n1,-,-,-,H37Rv,MIC,>12.5 µg/mL
CC1/C(=N/O)CC(c2ccccc2)N(N=O)C1c1ccccc1,resazurin,6.25 µg/mL,-,H37Rv,inhibition,37%
Cc1ccccc1NNC(=O)N1CCN(c2nc(N3CCN(c4ccccc4)CC3)c3ccccc3n2)CC1,BACTEC / fluorescence,-,-,H37Rv,MIC,>6.25 µg/mL
O=C(O)c1c(=O)c2cc([N+](=O)[O-])c(N3CCSCC3)nc2n2c1sc1ccccc12,-,-,-,H37Rv (MTB),MIC100,1.76 µM
N#C/C(=C1C=C(Br)/C(=N/O)C=C/1Cl)c1cccc2ccccc12,BACTEC,12.5 µg/mL,-,H37Rv,inhibition,29%
C[C@]1(COc2ccc(N3CCN(C/C=C/c4cccc(OC(F)(F)F)c4)CC3)cc2)Cn2cc([N+](=O)[O-])nc2O1,-,-,-,H37Rv,MIC,0.012 µg/mL
O=C(CNC(=O)NCc1ccco1)NNC(=O)Nc1ccc(F)c(Cl)c1,BACTEC,-,-,H37Rv,MIC bound,>12.5 µg/mL
CCn1cc(C(=O)O)c(=O)c2ccc(C)nc21,-,-,-,H37Rv,MIC,128 µg/mL
COc1cc(C(O)(CCN(C)C)C(c2cc(-c3cccc(C)c3)cnc2OC)c2cccc(OC)c2F)cc(OC)n1,resazurin,-,-,H37Rv,MIC90,7.9 µM
CO/N=C1/C(=O)N(CCOCCOCCOCCN2C(=O)C(=O)c3cc(C)ccc32)c2ccccc21,visual reading,-,MDR,-,MIC,128 µg/mL
CCOC(=O)Cc1csc(/N=C2/NC(=O)/C(=C\c3ccc(C(=O)OC)cc3)S2)n1,-,-,-,H37Rv,MIC,>12.5 µg/mL
NNC(=O)C(=O)N/N=C(\CC1(O)C(=O)Nc2ccccc21)c1ccccc1O,BACTEC,12.5 µg/mL,-,H37Rv,inhibition,0%
CCOC(=O)Cc1csc(/N=C2/NC(=O)/C(=C\c3ccccc3[N+](=O)[O-])S2)n1,-,-,-,H37Rv,MIC,>12.5 µg/mL
C=CCC1=CC2(OC)C1C(OC)(OC)C(=O)C1(CC=C)C=C(OC)C(=O)C(OC)(OC)C12,BACTEC,-,-,H37Rv,MIC bound,>12.5 µg/mL
COc1cc2c(c3c[n+](C)c4c5cc6c(cc5ccc4c13)OCO6)OCO2,BACTEC,-,-,H37Rv,MIC,<12.5 µg/mL
COc1cc(-c2nnc3n2NC=C(C(=O)O)S3)cc(OC)c1OC,BACTEC,-,-,H37Rv,MIC bound,>12.5 µg/mL
COc1ccc2c(c[n+](C)c3c4cc5c(cc4ccc23)OCO5)c1OC,BACTEC,-,-,H37Rv,MIC,<12.5 µg/mL
CC1=NC2C(=O)N(C)C(=O)N(C)C2n2c(O)ccc21,BACTEC,12.5 µg/mL,-,H37Rv,inhibition,-24%
Cc1cc(O)c(C(C)C)cc1N=Cc1cc([N+](=O)[O-])ccc1O,-,-,-,H37Rv,MIC99,6 µg/mL
CC(CCCN)Nc1cc2c(c3cccnc13)OCCO2.O=P(O)(O)O,BACTEC,-,-,H37Rv,MIC bound,>12.5 µg/mL
COc1ccccc1Sc1nnc(N2CCN(c3nc(N4CCN(c5ccccc5)CC4)c4ccccc4n3)CC2)o1,agar / visual reading,-,-,H37Rv,MIC,100 µg/mL

Blank or dashed fields: not listed here. MIC bound comes from a single tested concentration. Two numbers with a dash give a range or band. Lines come from different laboratories, so protocols vary. ECn is the concentration giving n% inhibition of infection, replication or growth. MIC50, MIC90 and the like: level of inhibition, or share of isolates inhibited.